For one assay, the species on record is Rattus norvegicus. Kind of assay: Selectivity index, ratio of IC50 for antagonist activity at rat alpha6/alpha3beta4 nAChR expressed in Xenopus laevis oocytes to IC50 for antagonist activity at rat alpha3beta4 nAChR expressed in Xenopus laevis oocytes. In kind it is cell-based.
Assay [1] deals with Nicotinic acetylcholine receptor alpha6/alpha3/beta4 (Rattus norvegicus) (UniProt P04757+P12392+P43143). The experiment in a line: Antagonist activity at rat alpha6/alpha3beta4 nAChR nACHR expressed in Xenopus laevis oocytes assessed as inhibition of acetyl choline-induced membrane currents at 10 uM pre-incubated for 5 mins prior to acetyl choline pulse at -70 mV potential by two-electrode voltage clamp assay. In kind it is cell-based. Background: In two-electrode clamp one electrode senses voltage and the other passes current.

Chains of the proteins cited; added tags and fusions are not shown. Lines headed by an entry give the natural chain unless they say otherwise; changes in a name come on top.
UniProt P04757, whole entry, looked up: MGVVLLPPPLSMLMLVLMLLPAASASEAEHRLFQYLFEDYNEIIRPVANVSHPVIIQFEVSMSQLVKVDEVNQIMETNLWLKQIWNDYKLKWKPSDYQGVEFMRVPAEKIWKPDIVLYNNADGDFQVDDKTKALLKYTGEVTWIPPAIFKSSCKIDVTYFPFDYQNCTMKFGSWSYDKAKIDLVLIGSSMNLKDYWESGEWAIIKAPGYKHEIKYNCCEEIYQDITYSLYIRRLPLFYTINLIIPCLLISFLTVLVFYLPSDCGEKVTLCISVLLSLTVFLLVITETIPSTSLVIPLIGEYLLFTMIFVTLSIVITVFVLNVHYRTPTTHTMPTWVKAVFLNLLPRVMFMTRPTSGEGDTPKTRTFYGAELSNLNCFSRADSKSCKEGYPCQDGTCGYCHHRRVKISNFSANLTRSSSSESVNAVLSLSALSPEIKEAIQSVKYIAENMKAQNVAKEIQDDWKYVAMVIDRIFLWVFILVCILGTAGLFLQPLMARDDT
UniProt P12392, whole entry, looked up: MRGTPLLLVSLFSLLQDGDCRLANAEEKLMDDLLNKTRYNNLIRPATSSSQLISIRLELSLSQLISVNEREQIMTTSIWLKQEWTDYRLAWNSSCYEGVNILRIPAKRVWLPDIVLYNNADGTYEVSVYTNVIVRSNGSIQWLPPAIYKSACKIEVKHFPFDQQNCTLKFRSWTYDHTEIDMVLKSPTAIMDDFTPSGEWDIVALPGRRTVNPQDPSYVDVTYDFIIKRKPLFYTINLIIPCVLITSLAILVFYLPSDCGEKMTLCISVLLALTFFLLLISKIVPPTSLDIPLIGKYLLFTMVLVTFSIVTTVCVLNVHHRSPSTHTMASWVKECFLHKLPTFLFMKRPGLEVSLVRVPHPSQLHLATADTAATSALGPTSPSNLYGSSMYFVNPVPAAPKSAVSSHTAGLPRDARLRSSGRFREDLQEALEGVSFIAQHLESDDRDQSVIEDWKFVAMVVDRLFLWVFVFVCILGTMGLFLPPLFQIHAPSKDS
UniProt P43143, whole entry, looked up: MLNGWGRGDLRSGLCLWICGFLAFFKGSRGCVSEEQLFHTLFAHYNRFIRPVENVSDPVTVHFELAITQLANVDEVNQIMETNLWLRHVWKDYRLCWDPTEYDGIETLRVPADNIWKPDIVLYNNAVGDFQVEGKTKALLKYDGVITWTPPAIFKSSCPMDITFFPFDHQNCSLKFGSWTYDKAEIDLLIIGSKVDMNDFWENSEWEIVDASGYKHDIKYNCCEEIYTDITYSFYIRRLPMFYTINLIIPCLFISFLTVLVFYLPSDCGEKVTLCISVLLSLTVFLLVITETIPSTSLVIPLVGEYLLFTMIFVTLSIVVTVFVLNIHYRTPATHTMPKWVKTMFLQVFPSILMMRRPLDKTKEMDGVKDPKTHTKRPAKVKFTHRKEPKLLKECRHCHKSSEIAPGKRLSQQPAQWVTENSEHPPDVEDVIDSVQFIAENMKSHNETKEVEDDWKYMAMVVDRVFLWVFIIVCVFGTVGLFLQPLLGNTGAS
UniProt Q05941, whole entry, looked up: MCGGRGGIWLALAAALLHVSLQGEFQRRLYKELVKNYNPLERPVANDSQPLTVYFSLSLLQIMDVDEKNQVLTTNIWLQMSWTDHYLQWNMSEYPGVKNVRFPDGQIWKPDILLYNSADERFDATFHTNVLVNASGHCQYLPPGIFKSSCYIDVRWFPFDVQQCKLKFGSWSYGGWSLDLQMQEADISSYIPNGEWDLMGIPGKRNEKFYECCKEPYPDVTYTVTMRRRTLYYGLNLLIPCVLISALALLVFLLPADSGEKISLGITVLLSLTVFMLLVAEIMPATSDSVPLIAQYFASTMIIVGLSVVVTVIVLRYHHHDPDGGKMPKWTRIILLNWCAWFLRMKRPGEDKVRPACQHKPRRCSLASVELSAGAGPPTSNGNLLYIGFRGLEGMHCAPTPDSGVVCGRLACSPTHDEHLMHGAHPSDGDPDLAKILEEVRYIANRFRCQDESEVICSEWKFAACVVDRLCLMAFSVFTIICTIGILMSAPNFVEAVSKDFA
UniProt P12389: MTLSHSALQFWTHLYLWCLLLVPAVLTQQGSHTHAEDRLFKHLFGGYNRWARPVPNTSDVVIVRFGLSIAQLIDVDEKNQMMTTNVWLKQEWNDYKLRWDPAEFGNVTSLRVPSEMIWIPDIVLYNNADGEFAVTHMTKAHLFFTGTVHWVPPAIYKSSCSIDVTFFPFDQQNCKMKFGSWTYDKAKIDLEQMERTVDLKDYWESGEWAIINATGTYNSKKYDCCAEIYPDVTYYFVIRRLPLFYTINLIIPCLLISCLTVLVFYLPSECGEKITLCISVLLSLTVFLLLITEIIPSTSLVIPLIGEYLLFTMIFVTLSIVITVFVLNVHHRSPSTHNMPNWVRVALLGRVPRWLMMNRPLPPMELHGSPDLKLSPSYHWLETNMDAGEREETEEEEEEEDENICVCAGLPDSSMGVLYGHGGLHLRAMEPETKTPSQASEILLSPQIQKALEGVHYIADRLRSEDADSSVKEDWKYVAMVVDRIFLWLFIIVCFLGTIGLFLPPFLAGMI
UniProt P12390, whole entry, looked up: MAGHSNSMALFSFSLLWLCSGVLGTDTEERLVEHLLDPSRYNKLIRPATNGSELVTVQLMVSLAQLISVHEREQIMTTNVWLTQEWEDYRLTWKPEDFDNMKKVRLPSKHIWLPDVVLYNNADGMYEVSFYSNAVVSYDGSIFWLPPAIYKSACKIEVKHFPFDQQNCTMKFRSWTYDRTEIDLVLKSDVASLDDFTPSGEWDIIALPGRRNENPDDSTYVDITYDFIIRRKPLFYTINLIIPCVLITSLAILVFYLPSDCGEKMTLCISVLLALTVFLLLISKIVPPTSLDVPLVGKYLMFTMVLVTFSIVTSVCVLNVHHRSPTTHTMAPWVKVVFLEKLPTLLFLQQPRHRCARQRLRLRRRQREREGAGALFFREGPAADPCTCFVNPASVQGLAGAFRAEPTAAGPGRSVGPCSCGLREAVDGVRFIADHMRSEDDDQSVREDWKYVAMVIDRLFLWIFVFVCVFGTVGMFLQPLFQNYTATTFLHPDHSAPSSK
UniProt P09483: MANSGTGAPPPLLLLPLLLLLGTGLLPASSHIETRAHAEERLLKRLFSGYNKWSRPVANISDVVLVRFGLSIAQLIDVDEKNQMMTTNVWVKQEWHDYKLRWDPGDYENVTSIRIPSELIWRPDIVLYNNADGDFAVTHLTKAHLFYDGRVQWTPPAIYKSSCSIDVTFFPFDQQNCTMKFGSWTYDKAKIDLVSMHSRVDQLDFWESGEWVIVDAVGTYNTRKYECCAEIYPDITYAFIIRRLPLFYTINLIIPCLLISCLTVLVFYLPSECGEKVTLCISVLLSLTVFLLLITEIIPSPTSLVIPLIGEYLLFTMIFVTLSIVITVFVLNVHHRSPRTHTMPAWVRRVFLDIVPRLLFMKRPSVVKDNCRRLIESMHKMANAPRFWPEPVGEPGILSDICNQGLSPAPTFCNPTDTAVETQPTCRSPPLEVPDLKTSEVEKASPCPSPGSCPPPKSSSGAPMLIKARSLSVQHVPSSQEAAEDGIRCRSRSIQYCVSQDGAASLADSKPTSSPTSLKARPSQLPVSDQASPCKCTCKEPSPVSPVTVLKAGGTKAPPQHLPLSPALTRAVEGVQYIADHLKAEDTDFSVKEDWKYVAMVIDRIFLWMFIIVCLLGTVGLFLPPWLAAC
UniProt P43144: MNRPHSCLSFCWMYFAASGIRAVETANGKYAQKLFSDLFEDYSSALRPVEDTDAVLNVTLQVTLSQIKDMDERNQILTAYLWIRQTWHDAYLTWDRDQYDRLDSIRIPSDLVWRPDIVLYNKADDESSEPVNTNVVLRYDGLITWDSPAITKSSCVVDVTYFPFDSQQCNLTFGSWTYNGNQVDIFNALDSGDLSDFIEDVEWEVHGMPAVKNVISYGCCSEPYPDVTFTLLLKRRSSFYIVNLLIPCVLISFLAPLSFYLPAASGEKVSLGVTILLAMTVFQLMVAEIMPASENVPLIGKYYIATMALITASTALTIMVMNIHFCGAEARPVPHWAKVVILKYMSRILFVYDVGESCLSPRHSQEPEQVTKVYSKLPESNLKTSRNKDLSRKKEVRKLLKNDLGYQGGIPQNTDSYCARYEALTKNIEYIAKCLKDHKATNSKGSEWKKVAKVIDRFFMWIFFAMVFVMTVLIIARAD
UniProt Q9JLB5: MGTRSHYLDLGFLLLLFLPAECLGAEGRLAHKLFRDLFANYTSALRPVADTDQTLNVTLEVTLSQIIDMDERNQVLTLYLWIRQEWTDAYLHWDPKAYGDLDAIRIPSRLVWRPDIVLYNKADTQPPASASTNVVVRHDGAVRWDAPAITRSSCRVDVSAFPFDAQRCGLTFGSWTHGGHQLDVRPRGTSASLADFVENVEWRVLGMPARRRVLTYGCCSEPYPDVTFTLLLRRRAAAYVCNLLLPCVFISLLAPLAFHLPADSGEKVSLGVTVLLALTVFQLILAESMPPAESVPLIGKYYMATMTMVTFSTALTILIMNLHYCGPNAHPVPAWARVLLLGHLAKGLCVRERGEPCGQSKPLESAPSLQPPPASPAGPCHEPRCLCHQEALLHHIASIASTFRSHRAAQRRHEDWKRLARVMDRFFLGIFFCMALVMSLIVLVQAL

The target in assay [2] is Neuronal acetylcholine receptor subunit alpha-7 (Rattus norvegicus) (UniProt Q05941). Kind of assay: Antagonist activity at rat alpha7 nACHR expressed in Xenopus laevis oocytes assessed as inhibition of acetyl choline-induced membrane currents at 10 uM pre-incubated for 5 mins prior to acetyl choline pulse at -70 mV potential by two-electrode voltage clamp assay.
In assay [3] the target is Neuronal acetylcholine receptor; alpha2/beta2 (Rattus norvegicus) (UniProt P12389+P12390). The experiment in a line: Antagonist activity at rat alpha2beta2 nACHR expressed in Xenopus laevis oocytes assessed as inhibition of acetyl choline-induced membrane currents at 10 uM pre-incubated for 5 mins prior to acetyl choline pulse at -70 mV potential by two-electrode voltage clamp assay.

The target of assay [4] is Neuronal acetylcholine receptor; alpha2/beta4 (Rattus norvegicus) (UniProt P12389+P12392). The experiment in a line: Antagonist activity at rat alpha2beta4 nACHR expressed in Xenopus laevis oocytes assessed as inhibition of acetyl choline-induced membrane currents at 10 uM pre-incubated for 5 mins prior to acetyl choline pulse at -70 mV potential by two-electrode voltage clamp assay.

Assay [5] deals with Neuronal acetylcholine receptor; alpha3/beta2 (Rattus norvegicus) (UniProt P04757+P12390). Kind of assay: Antagonist activity at rat alpha3beta2 nACHR expressed in Xenopus laevis oocytes assessed as inhibition of acetyl choline-induced membrane currents at 10 uM pre-incubated for 5 mins prior to acetyl choline pulse at -70 mV potential by two-electrode voltage clamp assay.
Assay [6] concerns the target Neuronal acetylcholine receptor; alpha4/beta2 (Rattus norvegicus) (UniProt P09483+P12390). Kind of assay: Antagonist activity at rat alpha4beta2 nACHR expressed in Xenopus laevis oocytes assessed as inhibition of acetyl choline-induced membrane currents at 10 uM pre-incubated for 5 mins prior to acetyl choline pulse at -70 mV potential by two-electrode voltage clamp assay.

The target of assay [7] is Neuronal acetylcholine receptor; alpha4/beta4 (Rattus norvegicus) (UniProt P09483+P12392). Kind of assay: Antagonist activity at rat alpha4beta4 nACHR expressed in Xenopus laevis oocytes assessed as inhibition of acetyl choline-induced membrane currents at 10 uM pre-incubated for 5 mins prior to acetyl choline pulse at -70 mV potential by two-electrode voltage clamp assay.

Assay [8] has as its target Nicotinic acetylcholine receptor alpha9/alpha10 (Rattus norvegicus) (UniProt P43144+Q9JLB5). The experiment in a line: Antagonist activity at rat alpha9alpha10 nACHR expressed in Xenopus laevis oocytes assessed as inhibition of acetyl choline-induced membrane currents at 10 uM pre-incubated for 5 mins prior to acetyl choline pulse at -70 mV potential by two-electrode voltage clamp assay.

The inhibition is the change of the read-out against control, counted positive when it falls.

As for `CC[C@H](C)[C@@H]1NC(=O)[C@@H]2CCCN2C(=O)[C@H](CO)NC(=O)[C@H](CCSC)NC(=O)[C@H](C)NC(=O)[C@H](CC(C)C)NC(=O)[C@@H]2CSSC[C@H](NC(=O)CN)C(=O)N[C@@H](CSSC[C@@H](C(N)=O)NC1=O)C(=O)N[C@@H](CO)C(=O)N[C@@H](Cc1cnc[nH]1)C(=O)N1CCC[C@H]1C(=O)N[C@@H](C(C)C)C(=O)N2`, the Ratio IC50 in the assay listed under Rattus norvegicus was found to be 2.1.
The same measure, in the same setting: then `CC[C@H](C)[C@@H]1NC(=O)[C@@H]2CCCN2C(=O)[C@H](CO)NC(=O)[C@H](CCSC)NC(=O)[C@H](C)NC(=O)[C@H]([C@@H](C)O)NC(=O)[C@@H]2CSSC[C@H](NC(=O)CN)C(=O)N[C@@H](CSSC[C@@H](C(N)=O)NC1=O)C(=O)N[C@@H](CO)C(=O)N[C@@H](Cc1cnc[nH]1)C(=O)N1CCC[C@H]1C(=O)N[C@@H](C(C)C)C(=O)N2`, with 6.8; and `CC[C@H](C)[C@@H]1NC(=O)[C@@H]2CCCN2C(=O)[C@H](CO)NC(=O)[C@H](CCSC)NC(=O)[C@H](C)NC(=O)[C@H](CCCNC(=N)N)NC(=O)[C@@H]2CSSC[C@H](NC(=O)CN)C(=O)N[C@@H](CSSC[C@@H](C(N)=O)NC1=O)C(=O)N[C@@H](CO)C(=O)N[C@@H](Cc1cnc[nH]1)C(=O)N1CCC[C@H]1C(=O)N[C@@H](C(C)C)C(=O)N2`, with 65.
On the same count and under the same terms, then `CC[C@H](C)[C@@H]1NC(=O)[C@@H]2CCCN2C(=O)[C@H](CO)NC(=O)[C@H](CCSC)NC(=O)[C@H](C)NC(=O)[C@H](CO)NC(=O)[C@@H]2CSSC[C@H](NC(=O)CN)C(=O)N[C@@H](CSSC[C@@H](C(N)=O)NC1=O)C(=O)N[C@@H](CO)C(=O)N[C@@H](Cc1cnc[nH]1)C(=O)N1CCC[C@H]1C(=O)N[C@@H](C(C)C)C(=O)N2`, with 9.4; and `CC[C@H](C)[C@@H]1NC(=O)[C@@H]2CCCN2C(=O)[C@H](CO)NC(=O)[C@H](CCSC)NC(=O)[C@H](C)NC(=O)[C@@H](CO)NC(=O)[C@@H]2CSSC[C@H](NC(=O)CN)C(=O)N[C@@H](CSSC[C@@H](C(N)=O)NC1=O)C(=O)N[C@@H](CO)C(=O)N[C@@H](Cc1cnc[nH]1)C(=O)N1CCC[C@H]1C(=O)N[C@@H](C(C)C)C(=O)N2`, with 4.2; and `CC[C@H](C)[C@@H]1NC(=O)[C@@H]2CCCN2C(=O)[C@H](CO)NC(=O)[C@H](CCSC)NC(=O)[C@H](C)NC(=O)[C@H](Cc2ccc(O)cc2)NC(=O)[C@@H]2CSSC[C@H](NC(=O)CN)C(=O)N[C@@H](CSSC[C@@H](C(N)=O)NC1=O)C(=O)N[C@@H](CO)C(=O)N[C@@H](Cc1cnc[nH]1)C(=O)N1CCC[C@H]1C(=O)N[C@@H](C(C)C)C(=O)N2`, with 2.9.
Still for that read-out and setting: to `CCC1NC(=O)[C@@H]2CSSC[C@H](NC(=O)CN)C(=O)N[C@@H](CSSC[C@@H](C(N)=O)NC(=O)[C@H]([C@@H](C)CC)NC(=O)[C@@H]3CCCN3C(=O)[C@H](CO)NC(=O)[C@H](CCSC)NC(=O)[C@H](C)NC1=O)C(=O)N[C@@H](CO)C(=O)N[C@@H](Cc1cnc[nH]1)C(=O)N1CCC[C@H]1C(=O)N[C@@H](C(C)C)C(=O)N2` (some centres not stated) belongs 3.3.
On to `CC[C@H](C)[C@@H]1NC(=O)[C@@H]2CCCN2C(=O)[C@H](CO)NC(=O)[C@H](CCSC)NC(=O)[C@H](C)NC(=O)[C@H](CCCCN)NC(=O)[C@@H]2CSSC[C@H](NC(=O)CN)C(=O)N[C@@H](CSSC[C@@H](C(N)=O)NC1=O)C(=O)N[C@@H](CO)C(=O)N[C@@H](Cc1cnc[nH]1)C(=O)N1CCC[C@H]1C(=O)N[C@@H](C(C)C)C(=O)N2`, for which the inhibition in assay [1], in [2], in assay [3], in assay [4], in assay [5] and in assay [6] was below 50% throughout. Besides, the inhibition in assay [7] and in assay [8] was below 50% throughout.
As for `CC[C@H](C)[C@@H]1NC(=O)[C@@H]2CCCN2C(=O)[C@H](CO)NC(=O)[C@H](CCSC)NC(=O)[C@H](C)NC(=O)[C@H](C)NC(=O)[C@@H]2CSSC[C@H](NC(=O)CN)C(=O)N[C@@H](CSSC[C@@H](C(N)=O)NC1=O)C(=O)N[C@@H](CO)C(=O)N[C@@H](Cc1cnc[nH]1)C(=O)N1CCC[C@H]1C(=O)N[C@@H](C(C)C)C(=O)N2`, the Ratio IC50 in the assay filed under Rattus norvegicus was 46.
Turning to `CC[C@H](C)[C@@H]1NC(=O)[C@@H]2CCCN2C(=O)[C@H](CO)NC(=O)[C@H](CCSC)NC(=O)[C@H](C)NC(=O)[C@@H](CCCNC(=N)N)NC(=O)[C@@H]2CSSC[C@H](NC(=O)CN)C(=O)N[C@@H](CSSC[C@@H](C(N)=O)NC1=O)C(=O)N[C@@H](CO)C(=O)N[C@@H](Cc1cnc[nH]1)C(=O)N1CCC[C@H]1C(=O)N[C@@H](C(C)C)C(=O)N2`, the Ratio IC50 in the assay listed under Rattus norvegicus came out at 8.3.

For the origin of these results see ChEMBL document CHEMBL4196223 (J Med Chem, 2018).
